Results of single-concentration screens

Data taken from ChEMBL document CHEMBL3988442, “University of Dundee, Small-Polar-MMV Screening Library” (2021).

The filed quantity is “Percent Effect” (%).
The controls that fix the scale are not given in the record; negative values are as filed.
The entries come from a sample that favours strong results.
A dash means the value is not listed here; it may have been measured.

Mtb glucose medium: 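Phenotypic screen: M. tuberculosis growth, glucose 7H9 medium, 3 days; the read-out is not stated. Tested at 500 µM. Direction is inferred from retests: higher values go with more growth inhibition. About 18,000 compounds were tested under these conditions; 7.9% (about 1,400) showed 50% or more at least once.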
Mtb cholesterol medium: 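Phenotypic screen: M. tuberculosis growth, cholesterol and DPPC medium, 4 days; the read-out is not stated. Concentration: 500 µM. Direction is inferred from retests: higher values go with more growth inhibition. About 18,000 compounds were tested under these conditions; 5% (about 900) showed 50% or more at least once.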

SMILES	Mtb glucose medium	Mtb cholesterol medium
O=S(=O)(c1cccc2ncccc12)N1CCCC1	49.67	-
OCCN(CCO)Cc1cc(Br)cc2cccnc12	48.43	-
COc1ccc(CN2CCC(N)C2=O)c(OC)c1 (centres undefined)	15.28	-
COCCn1ccnc1CN1C[C@H](N(C)C)C[C@H]1CO	-	1.796
CN1C(=O)c2ccc(S(N)(=O)=O)cc2C1=O	-7.396	-
CN(C)C(C)(C)CNC(=O)NCCC1CCCCO1 (centres undefined)	63.32	-
CC1(C)CN(C(=O)c2cc(Br)c[nH]2)CCO1	69.49	57.78
Cc1n[nH]/c(=N\C(=O)c2csc(NC3CC3)n2)s1	4.965	9.231
CCNC(=O)CN(CC)c1cccc(CO)c1	-	-9.986
NCc1ccnc(-n2ccnc2)c1	-3.796	-
CN(C)C(=O)CNC(=O)c1cc2ccccc2cc1O	1.175	-
COC(=O)N1CCN(C(=O)c2ccc(Br)cc2O)CC1	36.68	-
N#Cc1ccc(CC(N)=O)cc1	-5.007	-
Cc1ccc(C(C)NC(=O)CN2CCNC(=O)C2)cn1 (centres undefined)	-11.75	-
Nc1nc(CCC(=O)NCc2cn3c(n2)SCC3)cs1	0.3351	-
O=C(CCCc1ccccc1)N1CCNCC1	8.679	-
CC(C)(C)OC(=O)c1cncc(N)c1	-	2.29
N#Cc1nc(NCCSCCCO)ccc1Cl	75.58	82.95
CNC(=O)c1ccc(S(=O)(=O)NCC(C)C)cc1	25.9	-
COc1cccc(CNc2ccccc2CO)n1	53.71	-
Cc1ccoc1C(=O)N1CCCC(C)C1 (centres undefined)	10.49	-
CNc1ncccc1CN	-1.164	-
CC1(C)CN(C(=O)c2cccn2C2CC2)C[C@]1(C)O	10.06	-
CCOCCN1CCN(C2(C(N)=O)CCCCC2)CC1	11.83	-
Cc1ccc(F)cc1C(=O)N1CCNCC1	-2.474	-
CCC(NC(=O)NCCCOC)C(C)C (centres undefined)	57.8	-
Ic1nnnn1-c1ccccc1	107.2	116
CC(=O)N1CCN(Cc2cccc3c2OCCO3)CC1	13.37	-
O=C(CC1CCCC1)NCC1CCCCC(=O)N1 (centres undefined)	-	-14.16
Nc1nc(N)nc(CN2CCCC2c2cccs2)n1 (centres undefined)	58	-
CC(C)(C)NC(=O)CNc1c(F)cc(C#N)cc1F	-	19.72
OCCN1CCN(Cc2nnnn2C2CC2)CC1	2.866	-
CC(O)CN1CCN(Cc2ccccc2C#N)CC1 (centres undefined)	8.26	-
CC1CCCN(S(=O)(=O)N(C)Cc2cc[nH]n2)C1 (centres undefined)	36.29	-
COCCNC(=O)CN1CCC(C)CC1	0.5368	-
Cc1nnnn1CCC(=O)NC(C)Cn1cccn1 (centres undefined)	-7.911	-
Cc1c[nH]c(CNC(=O)CCOc2ccccc2)n1	32.1	-
CN(CCCN)C(=O)Cc1cccc(Br)c1	32.97	-
CCSCC(=O)NCc1cccc(C(=O)NC2CC2)c1	-1.263	-
CNC(=O)N1CCN(c2ccc(Cl)cn2)CC1	-11.47	-18.01
Cc1nc2ccccc2nc1SCC(=O)NCCCO	13.37	-
COC(CN)C1CCCCC1 (centres undefined)	-10.02	-
Cc1cc(NC2CCN(C)C2=O)nc2ccccc12 (centres undefined)	-	-11.04
O=C(NC1CNC1)C1CC1	3.638	-

Repeated from the top, 3 entries:

- O=S(=O)(c1cccc2ncccc12)N1CCCC1 : Mtb glucose medium: 49.67%
- OCCN(CCO)Cc1cc(Br)cc2cccnc12 : Mtb glucose medium: 48.43%
- COc1ccc(CN2CCC(N)C2=O)c(OC)c1 (centres undefined) : Mtb glucose medium: 15.28%